Anti-infective test results gathered from many reports (values: NIAID ChemDB through PubChem).

Common to all: tests in culture; species: HIV-1

Two numbers with a dash give a range or band.

structure,strain or isolate,mutations,cells,method,read-out,dose,value
CC(C)C1=C2[C@H]3CC[C@@H]4[C@@]5(C)CC[C@H](OC(=O)[C@H]6C[C@@H](C(=O)O)C6(C)C)C(C)(C)[C@@H]5CC[C@@]4(C)[C@]3(C)CC[C@@]2(CC(=O)NCC(C)(C)NC(=O)c2csc(N)n2)CC1=O,92HT599,-,MT-2,p24 / ELISA,EC50,-,<1 µM
CC(C)=CCOc1cc(NC(=S)c2ccsc2C)ccc1Cl,Costatolide-resistant (RT Y188H),RT-Y188H,CEM + CEM-SS,cytopathic effect / XTT,fold resistance,-,8.75
CC(=O)N(CC(C)C)C1CN(C)CCn2c1nc(C(=O)NCc1ccc(F)cc1)c(O)c2=O,-,-,MT-4,p24,EC95,-,<1 µM
COc1ccc(S(=O)(=O)N(CC(C)C)C[C@@H](O)CCN(CC2CCCC2)S(=O)(=O)c2ccccc2)cc1,IIIB,-,CEM,p24,EC90,-,1 µM
CCC(=O)c1ccc(F)c([C@@H]2C[C@@H]2NC(=O)Nc2ccc(C#N)cn2)c1O,LAI,NNRTI-resistant (RT V90I),TZM-bl,β-galactosidase / luminescence,fold resistance,-,1.4
CN1CCn2c(nc(C(=O)NCc3ccc(F)cc3)c(O)c2=O)C1,-,-,MT-4,p24,EC95,-,<50 µM
O=C(c1ccccc1)N(CCc1ccccc1)C[C@H](O)CN(CC1CCCC1)S(=O)(=O)C1CCCS(=O)(=O)C1,IIIB,-,CEM,p24,EC90,-,1 µM
O=C(O)c1cc(-n2cccc2)ccc1Cl,92UG092 X4 CLADE A,-,PBMC/5.25M7,luciferase / cell fusion,EC90,-,31.58 µM
O=C1Nc2ccc(F)c(F)c2[C@@](C#CC2CC2)(C(F)(F)F)N1,-,RT-L100I,-,-,EC90,-,0.007 µM
Cc1cc(S(N)(=O)=O)ccc1NC(=O)COc1ccc(Cl)cc1C(=O)c1cc(Cl)cc(C#N)c1,HXB2,RT-V106A Y181C,HeLa + HELA CD4+,β-galactosidase,fold resistance,-,~1
Cc1ccc(CNCC[C@@]23CC[C@]4(C)[C@H](CC[C@@H]5[C@@]6(C)CC[C@H](OC(=O)[C@H]7C[C@@H](C(=O)O)C7(C)C)C(C)(C)[C@@H]6CC[C@]54C)C2=C(C(C)C)C(=O)C3)cn1,92HT599,-,MT-2,p24 / ELISA,EC50,-,<1 µM
CC(C)=CCOc1cc(NC(=S)c2ccoc2C)ccc1Cl,UC781-R (RT-Y181C),RT-Y181C,CEM + CEM-SS,cytopathic effect / XTT,fold resistance,-,111
CC(C)C1=C2[C@H]3CC[C@@H]4[C@@]5(C)CC[C@H](OC(=O)[C@H]6C[C@@H](C(=O)O)C6(C)C)C(C)(C)[C@@H]5CC[C@@]4(C)[C@]3(C)CC[C@@]2(CCNC[C@@H]2CCCCN2)CC1=O,92HT599,-,MT-2,p24 / ELISA,EC50,-,<1 µM
COC(=O)c1cccc2[nH]cc(C(=O)C(=O)N3CCN(C(=O)c4ccccc4)CC3CO)c12,-,-,HeLa + HELA CD4+/CCR5,luciferase,inhibition,10 µM,84%
O=C1c2c(O)c(=O)n(CC3CCCN(c4ncccn4)C3)c(=O)n2CCN1Cc1ccc(F)cc1,-,-,MT-4,p24,EC95,-,<10 µM
Cc1cc(C#N)cc(C(=O)c2cc(Cl)ccc2OCC(=O)Nc2ccc(OCCCN3CC=CC3)cc2C)c1,HXB2 (RT-K103N Y181C) Recombinant,RT-K103N Y181C,HeLa + HELA CD4+,β-galactosidase,fold resistance,-,~1
CC(C)[C@H](NC(=O)OCc1ccccn1)C(=O)N[C@@H](Cc1ccccc1)[C@@H](O)C[C@H](Cc1ccccc1)NC(=O)OCc1cccnc1,NL4-3,PR-M46I V82T,MT-4,p24,EC95,-,1.5 µM
O=C(C(=O)N1CCN(C(=O)c2ccc(Br)o2)CC1)c1c[nH]c2cccc(F)c12,-,-,HeLa + HELA CD4+/CCR5,luciferase,inhibition,10 µM,>98%
C[C@@H]1CCO[C@H]2Cn3cc(C(=O)NCc4ccc(F)cc4F)c(=O)c(O)c3C(=O)N12,NL4-3,N155H,CBMC,RT activity,fold resistance,-,1.4
COc1ccnc2[nH]cc(C(=O)C(=O)N3C4CCCC3CN(C(=O)c3ccccc3)C4)c12,QH0692,-,TZM-bl,luciferase,EC99,-,124 µM
COc1ccc(S(=O)(=O)N(CC(C)C)C[C@@H](O)CCN(CC2CCCC2)S(=O)(=O)C(C)(C)C)cc1,IIIB,-,CEM,p24,EC90,-,1 µM
Nc1nccc2c1ncn2[C@@H]1O[C@H](CO)[C@@H](O)[C@H]1O,-,-,MT-2,p24,EC95,-,>20 µM
CC(C)CN(CC(O)Cc1nccn1S(=O)(=O)c1ccccc1)S(=O)(=O)c1ccccc1,IIIB,-,CEM,p24,EC90,-,1 µM
O=C(C(=O)N1CCN(C(=O)c2cc(Br)ccc2S)CC1)c1c[nH]c2cccc(F)c12,-,-,HeLa + HELA CD4+/CCR5,luciferase,inhibition,10 µM,>98%
O=C1c2c(O)c(=O)n(CC3COCCN3Cc3ccccc3)c(=O)n2CCN1Cc1ccc(F)cc1,-,-,MT-4,p24,EC95,-,<10 µM
Cc1cc(S(N)(=O)=O)ccc1NC(=O)COc1ccc(Cl)cc1C(=O)c1cccc(C#N)c1,HXB2,RT-V106A Y181C,HeLa + HELA CD4+,β-galactosidase,fold resistance,-,~10
O=C(NCCc1ccccc1)Nc1nc2ccccc2s1,-,-,MT-4,RT activity,inhibition,0.1 µg/mL,1%
Cc1ccc(-c2ccc3c(c2)C=C(C(=O)Nc2ccc(C[N+](C)(C)C4CCOCC4)cc2)CCC3)cc1,Du174 CLADE C,-,PBMC,p24,inhibition,1 µM,99.1%
CS(=O)(=O)O.Cc1c(O)cccc1C(=O)N[C@@H](CSc1ccccc1)[C@H](O)CN1C[C@H]2CCS[C@H]2C[C@H]1C(=O)NC(C)(C)C,HXB2,-,CEM + CEM-SS,cytopathic effect / XTT,EC95,-,0.018 µM
CC(C)(C)c1cc(CS(=O)(=O)N(CC2CCCC2)C[C@@H](O)CN(CCc2ccccc2)C(=O)c2ccccc2)no1,IIIB,-,CEM,p24,EC90,-,1 µM
Cc1cc2[nH]cnc2cc1NC(=O)COc1ccc(Cl)cc1C(=O)c1cc(F)cc(C(F)(F)F)c1,HXB2,RT-G190A,HeLa + HELA CD4+,β-galactosidase,fold resistance,-,~1
CCCCCCNc1ncnc2c1ncn2[C@H]1CC[C@@H](CO)O1,RF,-,C8166,cytopathic effect / MTT / p24,EC90,-,100 µM
CN(C[C@@H](CCN1CCC2(CC1)CS(=O)c1ccccc12)c1cccc(Cl)c1)S(=O)(=O)c1ccccc1,YU2,-,PBMC,p24,EC95,-,12.5–25 µM
COC(=O)N1CCn2c(nc(C(=O)NCc3ccc(F)cc3)c(O)c2=O)C1CN(C)C,-,-,MT-4,p24,EC95,-,<50 µM
Nc1ccn([C@H]2CC[C@@H](CO)O2)c(=O)n1,-,-,MT-4,-,EC80,-,9 µM
COc1ccc(S(=O)(=O)N(CC2CCCC2)C[C@@H](O)CN(CCc2ccccc2)CC(=O)c2ccccc2)cc1,IIIB,-,CEM,p24,EC90,-,1 µM
CCCOC(=O)c1cc(O)c(O)c(O)c1,-,-,PBMC,p24 / ELISA,EC95,-,0.005–0.01 µg/mL
CC(C)=CCOc1cc(NC(=S)c2ccoc2C)ccc1Cl,NL4-3,RT-L100I,CEM + CEM-SS,p24,fold resistance,-,67
Nc1nc(=O)n([C@H]2C=C[C@@H](CO)O2)cc1F,XM-ABC-resistant,RT-K65R L74V M184V Y115F,PBMC,p24,EC90,-,6.2 µM
Cc1cc(S(N)(=O)=O)ccc1NC(=O)COc1ccc(Cl)cc1C(=O)c1cccc(C#N)n1,HXB2,RT-V106I Y181C,HeLa + HELA CD4+,β-galactosidase,fold resistance,-,~1
COc1ccnc2[nH]cc(C(=O)C(=O)N3C4CC3CN(C(=O)c3ccccc3)C4)c12,SF162,-,TZM-bl,luciferase,EC99,-,>>250 µM
COc1cc(C[C@H]2C(=O)OC[C@@H]2Cc2ccc(OC)c(OC)c2)ccc1O,IIIB,-,H9,p24,EC80,-,0.05–0.9 µM
CC(C)CN(C[C@@H](O)[C@@H]1CCCCCCCCOc2c(O)cccc2C(=O)N1)S(=O)(=O)c1ccc2c(c1)OCO2,LAI,-,MT-2,cytopathic effect / MTT,EC75,-,>1 µM
COc1ccc(F)c2c(C(=O)C(=O)N3CCN(C(=O)c4cccc(N)c4)C[C@H]3C)c[nH]c12,-,-,HeLa + HELA CD4+/CCR5,luciferase,inhibition,10 µM,>98%
O=C1Nc2ccc(Cl)cc2[C@@](C#CC2CC2)(C(F)(F)F)N1,-,-,-,-,EC90,-,0.0019 µM
Cc1nc(NC(=O)NCCc2ccccc2)sc1C,-,-,MT-4,cytopathic effect / XTT,inhibition,10 µg/mL,85–88%
CC(C)(C)OC(=O)Nc1ccccc1C(=O)N1CCN(C(=O)C(=O)c2c[nH]c3cccc(Cl)c23)CC1,-,-,HeLa + HELA CD4+/CCR5,luciferase,inhibition,10 µM,51%
COc1ccc(S(=O)(=O)N(CC[C@H](O)CN(CC(C)C)S(=O)(=O)c2ccc(OC)cc2)CC2CCCC2)cc1,IIIB,-,CEM,p24,EC90,-,0.1 µM
CC(=O)NC1CN(C)CCn2c1nc(C(=O)NCc1ccc(F)cc1)c(O)c2=O,-,-,MT-4,p24,EC95,-,<50 µM
CCc1nnc(NC(=O)NCCc2ccccc2)s1,-,-,MT-4,cytopathic effect / XTT,inhibition,10 µg/mL,7%
CN(C[C@@H](CCN1CCC2(CC1)CS(=O)c1ccccc12)c1ccc(Cl)c(Cl)c1)S(=O)(=O)c1ccccc1,YU2,-,PBMC,-,EC95,-,<12 µM
C[C@H]1[C@H](O)[C@@H](C)/C=C/C=C/C=C/C=C/C=C/C=C/C=C/[C@H](O[C@@H]2O[C@H](C)[C@@H](O)[C@H](N)[C@@H]2O)C[C@@H]2O[C@](O)(C[C@@H](O)C[C@@H](O)CC[C@H](O)[C@@H](O)C[C@@H](O)CC(=O)O[C@H]1C)C[C@H](O)[C@H]2C(=O)O,JV1083 CLADE G R5 (NSI),-,PBMC,p24 / RT activity,inhibition,3.3 µM,90%
CC(C)(C)S(=O)(=O)N(CC1CCCC1)C[C@@H](O)CN(CCc1ccccc1)C(=O)c1ccccc1,IIIB,-,CEM,p24,EC90,-,1 µM
O=C(NCCc1ccccc1)Nc1ccc(F)cc1,-,-,MT-4,cytopathic effect / XTT,inhibition,1 µg/mL,5%
CC(C)C1=C2[C@H]3CC[C@@H]4[C@@]5(C)CC[C@H](OC(=O)[C@H]6C[C@@H](C(=O)O)C6(C)C)C(C)(C)[C@@H]5CC[C@@]4(C)[C@]3(C)CC[C@@]2([C@@H](O)CNC(=O)C(C)(C)NC(=O)c2ccc(F)cc2)CC1=O,92HT599,-,MT-2,p24 / ELISA,EC50,-,<1 µM
CC1(C)[C@@H](O[C@H]2O[C@H](C(=O)O)[C@@H](O)[C@H](O)[C@H]2O[C@@H]2O[C@H](C(=O)O)[C@@H](O)[C@H](O)[C@H]2O)CC[C@]2(C)[C@H]3C(=O)C=C4[C@@H]5C[C@@](C)(C(=O)O)CC[C@]5(C)CC[C@@]4(C)[C@]3(C)CC[C@@H]12,IIIB,-,MT-4,antigen,inhibition,6 µM,3.9%
CCSCCn1c(=O)c(O)c2n(c1=O)CCN(Cc1ccc(F)cc1)C2=O,-,-,MT-4,p24,EC95,-,<10 µM
Cc1cc(C#N)cc(C(=O)c2cc(Cl)ccc2OCC(=O)Nc2ccc(S(N)(=O)=O)nc2C)c1,HXB2,RT-V106I,HeLa + HELA CD4+,β-galactosidase,fold resistance,-,~1
COc1ccc(S(=O)(=O)N(CC(C)C)C[C@@H](O)CCN(CC2CCCC2)S(=O)(=O)C2SC(NC(C)=O)=NC2C)cc1,IIIB,-,CEM,p24,EC90,-,1 µM
CCN(CC)c1ncnc2c1ncn2[C@H]1CC[C@@H](CO)O1,GB8,-,JM,p24,EC90,-,>200 µM
C[C@@H]1CN(C(=O)c2cccc(N)c2)CCN1C(=O)C(=O)c1c[nH]c2cccc(F)c12,-,-,HeLa + HELA CD4+/CCR5,luciferase,inhibition,10 µM,>98%
CC(C)C1=C2[C@H]3CC[C@@H]4[C@@]5(C)CC[C@H](OC(=O)[C@H]6C[C@@H](C(=O)O)C6(C)C)C(C)(C)[C@@H]5CC[C@@]4(C)[C@]3(C)CC[C@@]2([C@@H](O)CNCC(C)(C)NC(=O)c2cccc(Cl)c2)CC1=O,92HT599,-,MT-2,p24 / ELISA,EC50,-,<1 µM
CC1(C)C=Cc2c(ccc3ccc(=O)oc23)O1,-,-,SupT1 + Sup-T1,MTT,EC10,-,80 µg/mL

7 of the rows above, restated:

O=C1Nc2ccc(Cl)cc2[C@@](C#CC2CC2)(C(F)(F)F)N1 ; read-out: EC90 ; value: 0.0019 µM
CC(C)(C)OC(=O)Nc1ccccc1C(=O)N1CCN(C(=O)C(=O)c2c[nH]c3cccc(Cl)c23)CC1 ; cells: HeLa + HELA CD4+/CCR5 ; method: luciferase ; read-out: inhibition ; dose: 10 µM ; value: 51%
CC(C)(C)c1cc(CS(=O)(=O)N(CC2CCCC2)C[C@@H](O)CN(CCc2ccccc2)C(=O)c2ccccc2)no1 ; strain or isolate: IIIB ; cells: CEM ; method: p24 ; read-out: EC90 ; value: 1 µM
COc1ccc(S(=O)(=O)N(CC(C)C)C[C@@H](O)CCN(CC2CCCC2)S(=O)(=O)C2SC(NC(C)=O)=NC2C)cc1 ; strain or isolate: IIIB ; cells: CEM ; method: p24 ; read-out: EC90 ; value: 1 µM
CN(C[C@@H](CCN1CCC2(CC1)CS(=O)c1ccccc12)c1cccc(Cl)c1)S(=O)(=O)c1ccccc1 ; strain or isolate: YU2 ; cells: PBMC ; method: p24 ; read-out: EC95 ; value: 12.5–25 µM
O=C(C(=O)N1CCN(C(=O)c2ccc(Br)o2)CC1)c1c[nH]c2cccc(F)c12 ; cells: HeLa + HELA CD4+/CCR5 ; method: luciferase ; read-out: inhibition ; dose: 10 µM ; value: >98%
Cc1cc(S(N)(=O)=O)ccc1NC(=O)COc1ccc(Cl)cc1C(=O)c1cccc(C#N)c1 ; strain or isolate: HXB2 ; mutations: RT-V106A Y181C ; cells: HeLa + HELA CD4+ ; method: β-galactosidase ; read-out: fold resistance ; value: ~10

Inhibition is in % at the dose shown (toxicity tests: loss of growth or viability). Fold resistance: result on the changed form divided by that on wild type. ECn is the concentration giving n% inhibition of infection, replication or growth. Blank or dashed fields: not listed here. Conditions beyond the fields shown may differ between rows.